Source: PubChem BioAssay AID1347131 (National Center for Advancing Translational Sciences (NCATS), 2019)
The entries are a selection whose mix differs from that of the whole data set. Records with an inconclusive call do not appear. The source made the active and inactive calls. The call rests on the fitted dose curve; tested in HEK293 reporter line.

Experiment: qHTS Assay for Foot and Mouth Disease Virus Antivirals: Primary Screen against the MLPCN compound library; further: nearly all actives have a fitted effect of over 55% in size
Conditions: FMDV antiviral cell-based qHTS; at 57.9 µM (top of the series)

| SMILES | activity, negative = inhibition |
| --- | --- |
| O=C(OCCN1CCN(CCOCc2ccccc2)CC1)C(O)(c1ccccc1)c1ccccc1 | inactive: -55% |
